This assay concerns the target SARS-CoV-2 Spike protein (D614G) on authentic virus BetaCoV/Munich/BavPat1/2020. The assay can be described thus: cell-based or functional assay.

“REGN10987 (benchmark, human IgG1) (antibody)” had an IC50 in authentic virus (D614G strain) neutralization assays of 10.5 µg/mL.
For “REGN10933 (benchmark, human IgG1) (antibody)”, the IC50 in authentic virus (D614G strain) neutralization assays was 0.7 µg/mL.
